Laboratory results reported in patent US7494988B2, “Inhibitors of serine proteases, particularly hepatitis C virus NS3 protease” (Vertex Pharmaceuticals Incorporated, priority 2000, dated 2009).

Amino acid sequences for entries named in this document (tags omitted). Residues count along the entry.
UniProt P27958, 1027-1657 limits assumed: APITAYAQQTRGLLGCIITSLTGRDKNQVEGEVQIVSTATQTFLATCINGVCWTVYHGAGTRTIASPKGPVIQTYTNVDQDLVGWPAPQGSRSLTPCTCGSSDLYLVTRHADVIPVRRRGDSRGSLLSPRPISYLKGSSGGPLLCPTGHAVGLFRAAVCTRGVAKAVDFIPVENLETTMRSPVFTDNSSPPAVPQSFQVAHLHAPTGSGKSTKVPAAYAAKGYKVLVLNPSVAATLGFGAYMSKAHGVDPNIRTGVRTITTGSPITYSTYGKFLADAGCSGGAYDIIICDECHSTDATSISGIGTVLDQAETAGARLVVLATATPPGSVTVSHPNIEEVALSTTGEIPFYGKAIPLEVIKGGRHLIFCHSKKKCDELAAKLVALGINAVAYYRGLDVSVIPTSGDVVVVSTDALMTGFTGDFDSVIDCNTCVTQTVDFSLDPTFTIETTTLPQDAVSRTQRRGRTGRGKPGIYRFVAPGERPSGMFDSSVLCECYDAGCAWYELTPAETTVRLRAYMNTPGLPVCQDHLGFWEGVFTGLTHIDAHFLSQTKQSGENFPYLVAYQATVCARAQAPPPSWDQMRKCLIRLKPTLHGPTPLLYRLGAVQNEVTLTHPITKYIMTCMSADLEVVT

Target: HCV NS3 serine protease (Hepatitis C virus genotype 1a, UniProt P27958)
Assay: Inhibition of HCV NS3 serine protease, spectrophotometric assay (5A-pNA cleavage)
Settings: EDVVAbuC-p-nitroanilide (5A-pNA) substrate, 30° C., pNA release at 405 nm
Procedure: Insofar as compounds of formula (I) are able to inhibit NS3 serine protease, they are of evident clinical utility for the treatment of viral diseases, including HCV. The compounds of this invention are tested for their ability to inhibit HCV in the following spectrophotometric assay.
The spectrophotometric assays were run in a 96-well microtiter plate at 30° C., using a SpectraMax 250 reader (Molecular Devices, Sunnyvale, Calif.) with kinetic capability. Cleavage of EDVVAbuC-p-nitroanilide (5A-pNA) substrate was performed with or without NS4A in the same buffer used for HPLC assays at 30° C., and pNA release was monitored at 405 nm. […]
Kinetic constants for the rapid equilibrium ordered bisubstrate reaction were determined from rate vs. [4A], [EDVV AbuC-pNA] data by non-linear least squares fitting to equation 1 [J. F. Morrison, Biochim. […] Kii and Kis values for peptidyl inhibitors were determined from rate vs. [inhibitor], [substrate] data and fitting to the equation for mixed inhibition: rate=Vmax[S]/{Km(1+[I]/Kis)+[S](1+[I]/Kii)} The commercial program KinetAsyst (StateCollege, Pa.) was used for both procedures. Ki values were calculated from rate vs. [inhibitor] plots by a nonlinear least squares fit of the data to the equation of Morrison for tight binding competitive inhibition [J. F. Morrison, Biochim. […]

`CCC[C@H](NC(=O)C1C[C@@H](OC(=O)N2CCc3ccccc3C2)CN1C(=O)[C@@H](NC(=O)[C@@H](NC(=O)c1cnccn1)C(C)C)C(C)C)C(=O)C(=O)N1CC1C(=O)OC` (stereo partly shown) showed a Ki of under 1 µM.
